Data reported in patent US20120014883A1, “Compositions Comprising Derivatives Of Essential Oil Compounds And Use In Personal Care Products” (priority 2010, published 2012).

Assay: Descriptive Profile Panel (DPP) sensory test of eugenol (clove-like) taste
Details: for perception of eugenol (clove-like) taste, expert panel rating: 50 ppm in 5% sucrose water solution, swished and expectorated, 0-60 scale with half-unit intervals, 10 panelists

Structure (SMILES) | perception of eugenol (clove-like) taste, expert panel rating | difference in eugenol (clove-like) taste rating vs 50 ppm eugenol solution (0-60 scale, differences of 7.5 or more are likely consumer-meaningful)
C=CCc1ccc(O)c(OC)c1 [eugenol, 2-methoxy-4-(2-propenyl)phenol, reference compound] | 24.5 | 
C=CCc1ccc(OC(C)=O)c(OC)c1 [eugenyl acetate] | 14.2 | 10.3
